The source of these data is US7119073B2, “Peptides and their use as inhibitors of hepatitis C virus ns3 protease” (Istituto Di Ricerche Di Biologia Molecolare P. Angeletti SpA, priority 2001, dated 2006).

By UniProt entry, the sequences of proteins in these tests, tags left out. Where a name states a change or a piece, a line headed by the entry shows the natural chain unless it says otherwise. Residues count along the entry.
UniProt P26663, 1027-1657 limits assumed: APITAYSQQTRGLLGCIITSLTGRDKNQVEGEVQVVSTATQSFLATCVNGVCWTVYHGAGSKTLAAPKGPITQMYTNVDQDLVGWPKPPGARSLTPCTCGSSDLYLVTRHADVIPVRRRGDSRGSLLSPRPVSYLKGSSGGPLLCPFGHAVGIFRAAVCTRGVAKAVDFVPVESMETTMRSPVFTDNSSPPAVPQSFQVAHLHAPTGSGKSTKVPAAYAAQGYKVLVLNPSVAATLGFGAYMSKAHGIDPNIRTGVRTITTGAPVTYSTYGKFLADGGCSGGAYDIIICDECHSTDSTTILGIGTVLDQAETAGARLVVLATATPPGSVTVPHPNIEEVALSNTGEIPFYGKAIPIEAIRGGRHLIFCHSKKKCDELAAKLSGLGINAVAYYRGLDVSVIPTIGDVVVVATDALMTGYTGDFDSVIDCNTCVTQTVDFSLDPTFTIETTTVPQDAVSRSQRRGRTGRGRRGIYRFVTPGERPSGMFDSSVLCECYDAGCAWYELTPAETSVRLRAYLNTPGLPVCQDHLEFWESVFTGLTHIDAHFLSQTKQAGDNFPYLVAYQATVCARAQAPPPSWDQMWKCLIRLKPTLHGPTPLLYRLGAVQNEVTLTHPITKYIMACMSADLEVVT
UniProt P26663, 1658-1711 partner limits assumed: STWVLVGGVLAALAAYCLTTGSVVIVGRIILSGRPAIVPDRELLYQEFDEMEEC
UniProt P26663, 1027-1206 limits assumed: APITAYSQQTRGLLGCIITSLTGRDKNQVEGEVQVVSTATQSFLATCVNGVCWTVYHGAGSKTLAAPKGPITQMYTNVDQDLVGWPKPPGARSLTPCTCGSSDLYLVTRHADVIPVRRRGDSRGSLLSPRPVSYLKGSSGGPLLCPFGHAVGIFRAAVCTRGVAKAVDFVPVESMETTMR

The structures appear in SMILES notation.

The first experiment concerns the target NS3 protease domain complexed to a modified form of the NS4A peptide (Pep4AK) (Hepatitis C virus genotype 1b, UniProt P26663). Nature of the experiment: HCV NS3 protease domain/NS4A cofactor peptide assay (Assay B). Conditions: read-out: Assay B; Table 3; NS3 protease domain/Pep4AK. An excerpt: HCV NS3 Protease Domain/ NS4A Cofactor Peptide Assay (Assay B)
(Steinkühler, C., Biasiol, G., Brunetti, M., Urbani, A., Koch, U., Cortese, R., Pessi, A., and De Francesco, R. Product inhibition of the hepatitis C virus NS3 protease. Biochemistry 37, 8899–8905, 1998)
In this assay the NS3 protease domain (residues 1027–1206 of the HCV polyprotein) complexed to a modified form of the NS4A peptide, spanning residues 21–34 of the NS4A cofactor in addition to a solubilizing lys-tag, Pep 4AK were used. As substrate, peptide 4AB based on the sequence of the NS4A/NS4B cleavage site of the HCV polyprotein, was added.
Cleavage assays were performed in 60 μl 50 mM Hepes pH7.5, 1% (w/v) CHAPS, 15% (v/v) glycerol, 10 mM DTT (buffer A), containing 80 μM Pep4AK. Buffer solutions were preincubated for 10 min with 10–200 nM protease and reactions were started by addition of 10 μM substrate. Six duplicate data points at different substrate concentrations were used to calculate kinetic parameters. Incubation times were chosen in order to obtain <7% substrate conversion and reactions were stopped by addition of 40 μl 1% TFA. Reactions were analysed by HPLC essentially as described above. The fluorescence detector was set to monitor tyrosine fluorescence of substrate and cleavage product (λex=260 nm, λem=305 nm).
As for `CC(=O)N[C@H](C(=O)N[C@@H](CCC(=O)O)C(=O)N[C@@H](CC1CCCCC1)C(=O)N[C@@H](CC(F)F)C(=O)NOCc1ccccc1)C(c1ccccc1)c1ccccc1`, the IC50 was under 100 µM.

The next experiment addresses full length NS3 protein noncovalently complexed with the full-length NS4A cofactor protein (NS3/NS4A complex) (Hepatitis C virus genotype 1b, UniProt P26663). Nature of the experiment: Full-length NS3-NS4A heterodimer protein assay (Assay A). Conditions: read-out: Assay A, Table 6. Here is the method:
Full-Length NS3-NS4A Heterodimer Protein Assay (Assay A)
(Gallinari, P., Paolini, C., Brennan, D., Nardi, C., Steinkühler, C. and De Francesco, R. Modulation of hepatitis C virus NS3 protease and helicase activities through the interaction with NS4A. Biochemistry 38, 5620–5632, 1999)
In this assay the full length NS3 protein spanning residues 1027–1657 of the HCV polyprotein, noncovalently complexed with the full-length NS4A cofactor protein (residues 1658–1711) was used. Assays were performed in 60 μl of a buffer containing 50 mM Hepes pH 7.5, 0.15 M NaCl, 0.1% (v/v) Triton X-100, 15% (v/v) glycerol, 10 mM DTT, 2 nM NS3/NS4A complex. To this assay mix 10 μM (final concentration) of a peptide substrate corresponding to the NS5AB cleavage site and having the sequence of the NS5A-NS5B peptide, were added. Incubation times at 23° C. were adjusted to obtain <10% conversion. Reactions were stopped by the addition of 40 μl of 1% TFA. Cleavage was determined by HPLC using a Merck-Hitachi chromatograph equipped with an autosampler. 80 μl samples were injected on a Lichrospher C18 reversed phase cartridge column (4×74 mm, 5 μm, Merck) and fragments were separated using a 10–40% acetonitrile gradient at 5%/min using a flow rate of 2.5 ml/min. Peak detection was done by monitoring both the absorbance at 220 nm and tryptophan fluorescence (λex=280 nm, λem=350 nm). Cleavage products were quantitated by integration of chromatograms with respect to appropriate standards. Kinetic parameters were calculated from nonlinear least-squares fit of initial rates as a function of substrate concentration with the help of a Kaleidagraph software, assuming Michaelis-Menten kinetics.
Ki values of peptide inhibitors were calculated from substrate titration experiments performed in the presence of increasing amounts of inhibitor. Experimental data sets were simultaneously fitted to eg.1 using a multicurve fit macro with the help of a Sigmaplot software: V=(VmaxS)/(Km([…])+S); (eq.1) Alternatively, Ki values were derived from IC50 values, calculated using a four-parameter logistic function, according to eq.2: IC50=(1+S/Km)Ki (eq.2)
Consider `CC(C)C[C@H](O)C(=O)N1C[C@H](c2ccccc2)C[C@H]1C(=O)N[C@@H](CC(F)F)C(=O)NCCc1c(F)cc(C(=O)O)cc1F`, for which the IC50 was under 100 µM.
The same measure, in the same setting: in the case of `O=C(O)c1cc(F)c(CCNC(=O)[C@H](CC(F)F)NC(=O)[C@@H]2C[C@@H](c3ccccc3)CN2C(=O)[C@@H](O)C2CCCC2)c(F)c1` it was under 100 µM.
Take `CC(C)[C@H](O)C(=O)N1C[C@H](OCC2CC2)C[C@H]1C(=O)N[C@@H](CC(F)F)C(=O)NCCc1c(F)cc(C(=O)O)cc1F`: the IC50 is under 100 µM.
The same measure, in the same setting: for `O=C(O)c1cc(F)c(CCNC(=O)[C@H](CC(F)F)NC(=O)[C@@H]2C[C@@H](c3ccccc3)CN2C(=O)[C@@H](O)c2ccccc2)c(F)c1` the value was under 100 µM.
On the same count and under the same terms, for `CCC(CC)CO[C@@H]1C[C@@H](C(=O)N[C@@H](CC(F)F)C(=O)NCCc2c(F)cc(C(=O)O)cc2F)N(C(=O)[C@@H](O)C(C)C)C1` the value was under 100 µM; for `CC(C)[C@H](O)C(=O)N1C[C@H](OCc2ccccc2)C[C@H]1C(=O)N[C@@H](CC(F)F)C(=O)NCCc1c(F)cc(C(=O)O)cc1F`, under 100 µM; for `O=C(O)c1cc(F)c(CCNC(=O)[C@H](CC(F)F)NC(=O)[C@@H]2C[C@@H](c3ccccc3)CN2C(=O)[C@@H](O)C2CCCCC2)c(F)c1`, under 100 µM.
Still for that read-out and setting: for `CC(C)[C@H](O)C(=O)N1C[C@H](SCc2ccccc2)C[C@H]1C(=O)N[C@@H](CC(F)F)C(=O)NCCc1c(F)cc(C(=O)O)cc1F` the value was under 100 µM; for `CC(C)[C@H](O)C(=O)N1C[C@H](C2CCCCC2)C[C@H]1C(=O)N[C@@H](CC(F)F)C(=O)NCCc1c(F)cc(C(=O)O)cc1F`, under 100 µM; for `CC(C)[C@H](O)C(=O)N1C[C@H](c2ccccc2)C[C@H]1C(=O)N[C@@H](CC(F)F)C(=O)NCCc1c(F)cc(C(=O)O)cc1F`, under 100 µM.
Take `CCCCCC(CC)C(O)C(=O)N1C[C@H](c2ccccc2)C[C@H]1C(=O)N[C@@H](CC(F)F)C(=O)NCCc1c(F)cc(C(=O)O)cc1F` (some centres unmarked): the IC50 is under 100 µM.
The same measure, in the same setting: for `O=C(O)c1cc(F)c(CCNC(=O)[C@H](CC(F)F)NC(=O)[C@@H]2C[C@@H](c3ccccc3)CN2C(=O)C(O)C2CC2)c(F)c1` (some centres unmarked) the value was under 100 µM.
On the same count and under the same terms, for `CC(C)[C@H](O)C(=O)N1C[C@H](OCc2ccc(-c3ccccc3)cc2)C[C@H]1C(=O)N[C@@H](CC(F)F)C(=O)NCCc1c(F)cc(C(=O)O)cc1F` the value was under 100 µM.
As to `CC(C)[C@H](O)C(=O)N1C[C@H](c2ccccc2)C[C@H]1C(=O)N[C@@H](CC(F)F)C(=O)NCCc1ccc(-c2nn[nH]n2)cc1`, the IC50 is under 100 µM.
Take `O=C(O)c1cc(F)c(CCNC(=O)[C@H](CC(F)F)NC(=O)[C@@H]2C[C@@H](c3ccccc3)CN2C(=O)Cc2cccs2)c(F)c1`: the IC50 is under 100 µM.
On the same count and under the same terms, in the case of `CC(C)[C@H](O)C(=O)N1C[C@H](OCc2ccccc2Cl)C[C@H]1C(=O)N[C@@H](CC(F)F)C(=O)NCCc1c(F)cc(C(=O)O)cc1F` it was under 100 µM.
On the same count and under the same terms, in the case of `CC(C)[C@H](O)C(=O)N1C[C@H](OC2CCCCC2)C[C@H]1C(=O)N[C@@H](CC(F)F)C(=O)NCCc1c(F)cc(C(=O)O)cc1F` it was under 100 µM; in that of `CC(C)[C@H](O)C(=O)N1C[C@H](OCc2ccc(Cl)c(Cl)c2)C[C@H]1C(=O)N[C@@H](CC(F)F)C(=O)NCCc1c(F)cc(C(=O)O)cc1F`, under 100 µM; in that of `CC(C)[C@H](O)C(=O)N1C[C@H](OC(C)(C)C)C[C@H]1C(=O)N[C@@H](CC(F)F)C(=O)NCCc1c(F)cc(C(=O)O)cc1F`, under 100 µM.
On the same count and under the same terms, for `CC(C)[C@H](O)C(=O)N1C[C@H](OCc2noc(C(C)(C)C)n2)C[C@H]1C(=O)N[C@@H](CC(F)F)C(=O)NCCc1c(F)cc(C(=O)O)cc1F` the value was under 100 µM; for `CC(C)(C)OC(=O)c1cc(F)c(CCNC(=O)[C@H](CC(F)F)NC(=O)[C@@H]2C[C@@H](c3ccccc3)CN2C(=O)Cc2ccncc2)c(F)c1`, under 100 µM.
With `CCC(C)[C@@H](O)C(=O)N1C[C@H](c2ccccc2)C[C@H]1C(=O)N[C@@H](CC(F)F)C(=O)NCCc1c(F)cc(C(=O)O)cc1F` (some centres unmarked), the IC50 is under 100 µM.
The same measure, in the same setting: in the case of `CC(C)[C@H](O)C(=O)N1C[C@H](c2ccccc2)C[C@H]1C(=O)N[C@@H](CC(F)F)C(=O)NCCc1ccc(-c2noc(=O)[nH]2)cc1` it was under 100 µM; in that of `O=C(O)c1cc(F)c(CCNC(=O)[C@H](CC(F)F)NC(=O)[C@@H]2C[C@@H](c3ccccc3)CN2C(=O)CC2CCCC2)c(F)c1`, under 100 µM.
Still for that read-out and setting: for `CC(C)[C@H](O)C(=O)N1C[C@H](OCc2ccc(Br)cc2)C[C@H]1C(=O)N[C@@H](CC(F)F)C(=O)NCCc1c(F)cc(C(=O)O)cc1F` the value was under 100 µM; for `O=C(O)CCC(=O)N1C[C@H](c2ccccc2)C[C@H]1C(=O)N[C@@H](CC(F)F)C(=O)NCCc1c(F)cc(C(=O)O)cc1F`, under 100 µM; for `O=C(O)c1cc(F)c(CCNC(=O)[C@H](CC(F)F)NC(=O)[C@@H]2C[C@@H](c3ccccc3)CN2C(=O)[C@H](O)C2CCCC2)c(F)c1`, under 100 µM.
Consider `CC(C)CC(=O)N1C[C@H](c2ccccc2)C[C@H]1C(=O)N[C@@H](CC(F)F)C(=O)NCCc1c(F)cc(C(=O)O)cc1F`, for which the IC50 is under 100 µM.
`CC(C)=CCO[C@@H]1C[C@@H](C(=O)N[C@@H](CC(F)F)C(=O)NCCc2c(F)cc(C(=O)O)cc2F)N(C(=O)[C@@H](O)C(C)C)C1`: the IC50 is under 100 µM.
Still for that read-out and setting: in the case of `O=C(O)c1cc(F)c(CCNC(=O)[C@H](CC(F)F)NC(=O)[C@@H]2C[C@@H](c3ccccc3)CN2C(=O)Cc2sc(O)nc2O)c(F)c1` it was under 100 µM.
As for `CCC(CC)C(O)C(=O)N1C[C@H](c2ccccc2)C[C@H]1C(=O)N[C@@H](CC(F)F)C(=O)NCCc1c(F)cc(C(=O)O)cc1F` (some centres unmarked), the IC50 is under 100 µM.
Same read-out and setting: for `CC(C)(C)[C@H](O)C(=O)N1C[C@H](c2ccccc2)C[C@H]1C(=O)N[C@@H](CC(F)F)C(=O)NCCc1c(F)cc(C(=O)O)cc1F` the value was under 100 µM.
Same read-out and setting: in the case of `CC(C)[C@H](O)C(=O)N1C[C@H](c2ccccc2)C[C@H]1C(=O)N[C@@H](CC(F)F)C(=O)NCCc1c(F)cc(-c2nn[nH]n2)cc1F` it was under 100 µM.
The same measure, in the same setting: in the case of `CCC(C)[C@H](O)C(=O)N1C[C@H](c2ccccc2)C[C@H]1C(=O)N[C@@H](CC(F)F)C(=O)NCCc1c(F)cc(C(=O)O)cc1F` (some centres unmarked) it was under 100 µM.

The same experiment, now with this note: read-out: AssayA, Table 5.
`CC(C)[C@H](NC(=O)OCC(C)(C)C)C(=O)N1C[C@H](C2CCCCC2)C[C@H]1C(=O)N[C@@H](CC(F)F)C(=O)NCCc1c(F)cc(C(=O)O)cc1F`: the IC50 was under 1 µM.
As to `CC(C)COC(=O)N[C@H](C(=O)N1C[C@H](c2ccccc2)C[C@H]1C(=O)N[C@@H](CS)C(=O)NCCc1ccc(C(=O)O)cc1Cl)C1CCCC1`, the IC50 was under 1 µM.
The same measure, in the same setting: for `CC(C)COC(=O)N[C@H](C(=O)N1C[C@H](C2CCCCC2)C[C@H]1C(=O)N[C@@H](CC(F)F)C(=O)NCCc1c(F)ccc(OC(C)C(=O)O)c1F)C(C)C` (some centres unmarked) the value was under 1 µM.
On the same count and under the same terms, in the case of `CC(C)COC(=O)N[C@H](C(=O)N1C[C@H](c2ccccc2)C[C@H]1C(=O)N[C@@H](CC(F)F)C(=O)NCCc1c(F)cc(C(=O)O)cc1F)C(C)C` it was under 1 µM; in that of `CC(C)COC(=O)N[C@H](C(=O)N1C[C@H](C2CCCCC2)C[C@H]1C(=O)N[C@@H](CC(F)F)C(=O)NCCc1c(F)cc(-c2nn[nH]n2)cc1F)C(C)C`, under 1 µM.
On to `CC(C)COC(=O)N[C@H](C(=O)N1C[C@H](SC2CCCCC2)C[C@H]1C(=O)N[C@@H](CC(F)F)C(=O)NCCc1c(F)cc(C(=O)O)cc1F)C(C)C`, for which the IC50 is under 10 µM.
